In PMC10276184 one finds Kd data, which are given here for 1 sequence.

What all share (assay): fluorescence polarization
(In general: In fluorescence polarisation assays a small probe gives low polarisation when free and higher when bound to something large.)

For data set [1], the target named is JDBD-H440A (Leishmania tarentolae) (UniProt Q9U6M1). As to conditions: T7 = base J (beta-D-glucopyranosyloxymethyluracil); printed GGCAGCJGCAACAA; 20 mM HEPES pH 7.5, 140 mM NaCl, 2 mM MgCl2, 1 mM TCEP, 1 mg/ml chicken ovalbumin, 0.05% Tween 20, 1 nM TAMRA-DNA; dilutions prepared on ice; recombinant protein; protein details: His6.
The target in data set [2] is JBP1 wt full-length (Leishmania tarentolae) (UniProt Q9U6M1). As to conditions: T7 = base J (beta-D-glucopyranosyloxymethyluracil); printed GGCAGCJGCAACAA; 20 mM HEPES pH 7.5, 140 mM NaCl, 2 mM MgCl2, 1 mM TCEP, 1 mg/ml chicken ovalbumin, 0.05% Tween 20, 1 nM TAMRA-DNA; dilutions prepared on ice; recombinant protein; residues 1-827.
Data set [3] concerns the target Δ38-JBP1 (Leishmania tarentolae) (UniProt Q9U6M1). As to conditions: T7 = base J (beta-D-glucopyranosyloxymethyluracil); printed GGCAGCJGCAACAA; 20 mM HEPES pH 7.5, 140 mM NaCl, 2 mM MgCl2, 1 mM TCEP, 1 mg/ml chicken ovalbumin, 0.05% Tween 20, 1 nM TAMRA-DNA; dilutions prepared on ice; recombinant protein; residues 38-827.
Data set [4] has as its target JDBD-E437A (Leishmania tarentolae) (UniProt Q9U6M1). As to conditions: T7 = base J (beta-D-glucopyranosyloxymethyluracil); printed GGCAGCJGCAACAA; 20 mM HEPES pH 7.5, 140 mM NaCl, 2 mM MgCl2, 1 mM TCEP, 1 mg/ml chicken ovalbumin, 0.05% Tween 20, 1 nM TAMRA-DNA; dilutions prepared on ice; recombinant protein; protein details: His6.
Data set [5] deals with Δ23-JBP1 (Leishmania tarentolae) (UniProt Q9U6M1). As to conditions: T7 = base J (beta-D-glucopyranosyloxymethyluracil); printed GGCAGCJGCAACAA; 20 mM HEPES pH 7.5, 140 mM NaCl, 2 mM MgCl2, 1 mM TCEP, 1 mg/ml chicken ovalbumin, 0.05% Tween 20, 1 nM TAMRA-DNA; dilutions prepared on ice; recombinant protein; residues 23-827.

A word on the Kd: it is a measure of binding affinity in units of concentration.

For at least one entry, the source does not settle the construct or the ends of the probe.

For the sequence GGCAGCTGCAACAA (double strand) [J-DNA], the Kd in data set [1] came out at 0.057 µM; in data set [2], 0.0064 µM; in data set [3] it was 0.0312 µM; in data set [4] it was 0.03 µM; in data set [5], 0.0208 µM.
